Data published in publication PMC9637228, “Elucidating host cell response pathways and repurposing therapeutics for SARS-CoV-2 and other coronaviruses” (Scientific Reports, 2022).
Counter-ions that a name gives are not always drawn. Like-named read-outs stand apart in the source and are kept apart here.

What was measured:
[1] = tested on: SARS-CoV-2; format: cell-based; settings: SARS-CoV-2 in Vero cells
[2] = tested on: HCoV-229E; assay: Anti-HCoV-229E compound testing in MRC5 cells (Cell-Titer Glo); format: cell-based; settings: HCoV-229E in MRC5; ratio of CC50 to EC50
Description: (§1) Human lung fibroblast MRC5 cells were cultured in a 96-well plate at 10,000 cells/well in EMEM + 10% FBS overnight. The next day the culture medium was removed from each well and compounds in EMEM + 2% FBS + 0.5% DMSO were added. Each drug was tested on its own 96 well plate. Each plate contained 3 wells of uninfected cells without DMSO, 3 wells of uninfected cells with 0.5% DMSO, 3 wells of infected cells with no DMSO, and 3 wells of infected cells with 0.5% DMSO. Experimental compounds were tested in triplicate at each concentration. Tanespimycin, bortezomib, and homoharringtonine were tested using 2 µM starting concentration, 8-point, threefold serial dilution. After a 1-h pre-incubation with testing compounds, HCoV-229E or HCoV-OC43 viruses at an MOI of 0.01 were added to the culture with compounds for another 1 h. Cell-Titer Glo assay was added after additional incubation time with compounds of interest (HCoV-229E for 96 h and HCoV-OC43 for 120 h). Assay readout was performed using luminescence measurement on a Tecan Spark plate reader.
CC50 values were determined by applying nonlinear fit of luminescence readouts from uninfected, compound-treated wells against compound concentration. Likewise, EC50 values were determined by nonlinear fit of luminescence readouts from virus-infected, compound-treated wells. […] SI calculated as the ratio of CC50 to EC50.

[3] = tested on: HCoV-OC43; assay: Anti-HCoV-OC43 compound testing in MRC5 cells (Cell-Titer Glo); format: cell-based; settings: ratio of CC50 to EC50
Description: as §1
CC50 values were determined by applying nonlinear fit of luminescence readouts from uninfected, compound-treated wells against compound concentration. Likewise, EC50 values were determined by nonlinear fit of luminescence readouts from virus-infected, compound-treated wells. Nonlinear regression models were applied for derivation of EC50 and CC50 values respectively, based on built-in equations of Prism Version 8.2.1 (GraphPad Software, San Diego, CA). SI calculated as the ratio of CC50 to EC50.

[4] = tested on: SARS-CoV-2; settings: published preclinical studies; cited from earlier work

## CC(C)C[C@H](NC(=O)[C@H](Cc1ccccc1)NC(=O)c1cnccn1)B(O)O [Bortezomib]
[1]; Round 1
  SI index: 35.93
[1]; Round 1, listed as bortezomib
  SI index: 35.9
[1]; Round 2
  SI index: 14.63
[2]
  SI index: 2
[3]
  SI index: < 1

## Cc1nc(Nc2ncc(C(=O)Nc3c(C)cccc3Cl)s2)cc(N2CCN(CCO)CC2)n1 [Dasatinib]
[1]; Round 1
  SI index: 0.67

## CC(C)c1cc(-c2n[nH]c(=O)n2-c2ccc3c(ccn3C)c2)c(O)cc1O [Ganetespib]
[1]; Round 2
  SI index: 0.82

## COC(=O)C[C@](O)(CCCC(C)(C)O)C(=O)O[C@@H]1C(OC)=C[C@]23CCCN2CCc2cc4c(cc2[C@H]13)OCO4 [Homoharringtonine]
[1]; Round 1
  SI index: 12.84
[1]; Round 2
  SI index: 24.06
[2]
  SI index: 4
[3]
  SI index: 1

## CC(C)C[C@H](NC(=O)CNC(=O)c1cc(Cl)ccc1Cl)B(O)O [Ixazomib]
[1]; Round 2
  SI index: 4.27

## CCOC(=O)C1=C(C)NC(C)=C(C(=O)OCC)C1c1ccccc1/C=C/C(=O)OC(C)(C)C [Lacidipine]
[1]; Round 1
  SI index: 1.35

## CC[C@@H](C(N)=O)N1CCCC1=O [Levetiracetam]
[1]; Table 2 test
  SI index: 1.00

## Cc1cccc(C)c1OCC(=O)N[C@@H](Cc1ccccc1)[C@@H](O)C[C@H](Cc1ccccc1)NC(=O)[C@H](C(C)C)N1CCCNC1=O [Lopinavir]
[1]; Round 2
  SI index: 3.70
[1]; Table 2 test
  SI index: 3.96

## O=C(Nc1ccc([N+](=O)[O-])cc1Cl)c1cc(Cl)ccc1O [Niclosamide]
[4]
  reported SI index: 178.57

## CCC(CC)COC(=O)[C@H](C)N[P@](=O)(OC[C@H]1O[C@@](C#N)(c2ccc3c(N)ncnn23)[C@H](O)[C@@H]1O)Oc1ccccc1 [Remdesivir]
[1]; Round 1
  SI index: 4.14
[1]; Round 2
  SI index: 6.71
[1]; Table 2 test
  SI index: 5.83

## O=C(O)c1ccccc1Nc1cccc(OCc2ccc3ccccc3n2)c1 [SR-2640 hydrochloride]
[1]; Table 2 test
  SI index: 2.06
[1]; Table 2 test, listed as SR-2640
  SI index: very poor

## N[C@@H](CC(=O)N1CCn2c(nnc2C(F)(F)F)C1)Cc1cc(F)c(F)cc1F [Sitagliptin]
[1]; Table 2 test
  SI index: 1.00

## C=CCNC1=C2C[C@@H](C)C[C@H](OC)[C@H](O)[C@@H](C)/C=C(\C)[C@H](OC(N)=O)[C@@H](OC)/C=C\C=C(/C)C(=O)NC(=CC1=O)C2=O [Tanespimycin]
[1]; Round 2
  SI index: 1.60
[3]
  SI index: 133

## CC(=O)Nc1cccc(-n2c(=O)n(C3CC3)c(=O)c3c(Nc4ccc(I)cc4F)n(C)c(=O)c(C)c32)c1 [Trametinib]
[1]; Round 1
  SI index: 3.34

## CC[C@H]1CN2CCc3cc(OC)c(OC)cc3[C@@H]2C[C@@H]1C[C@H]1NCCc2cc(OC)c(OC)cc21 [emetine]
[4]
  reported SI index: 176.65
